Measured values: patent US20150268247A1, “Assay for Screening of Anti-Viral Compounds That Inhibit Specific Interaction Interfaces Between Cullin5 and an ElonginB/ElonginC/ CBF-beta/HIV-1 Vif Complex” (UNIVERSITY OF ROCHESTER, priority 2012, published 2015)

Amino acid sequences for entries named in this document (tags omitted). Chains listed by the source or under a name are the forms on record and can include a tag or linker.
ElonginB/ElonginC heterodimer (human), Q15370, UniProt Q15370, other isoform, or with tags, fused parts or gaps limits assumed, chain 1 of 2: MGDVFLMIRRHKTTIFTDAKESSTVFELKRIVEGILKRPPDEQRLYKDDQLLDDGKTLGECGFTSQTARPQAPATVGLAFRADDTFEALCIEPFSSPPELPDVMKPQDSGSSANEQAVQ

Biological target: ElonginB/ElonginC heterodimer (human), Q15370
Assay: fluorescence anisotropy, 5-FAM labelled peptide titrated with EloB/C up to about 115 µM; Table 4 of the text prints 45.2 for this pair [cont.) lower right panel]

B1: Cul5(43-54) peptide (peptide)
peptide: LFSDVHAVCLWD
modifications: not checked
B1 showed a Kd of 45.9 µM.
